From the supplement of paper PMC9931576
Human monoclonal antibodies against the spike receptor-binding domain (heavy:light variable regions). IC50 against pseudoviruses bearing the spike of naturally observed variants; lower = stronger; >10 µg/ml means not reached at the top dose. No active / inactive call. The stated detection limit is 0.0005 µg/ml; values near or below 0.001 µg/ml lie at the floor of the assay.

B1: BD55-5693 (protein)
chain 1: QMQLVQSGPEVKKPGTSVKVSCKASGFTFITSAVQWVRQARGQRLEWIGWIAVGSGKTDYAQKFQERVTISRDMSTSTAYLVVSGLRSEDTAVYYCAAPNCNTTTCVDGFDIWGQGTMVTVSS
chain 2: EIVLTQSPGTLSLSPGERATLSCRASQSVSRSYLAWYQQKRGQAPRLLIYAASRRATGIPDRFSGSGSGTDFTLTIPRLEPEDFAVYYCQQYGSSPWTFGQGTKVEIK
B2: BD55-5784 (protein)
chain 1: QVQLVQSGAEVKKPGASVKVSCRASGYTFTRYYIHWVRQAPGQGLEWMGIINPNGGTPSYAQKFQGRVTMTRDTSTSKVYMELTTLRYEDTAVYYCARDSNMIHHIVAGRPDQFDYWGQGTLVTVSS
chain 2: DIQLTQSPSSLSASVGDRVTITCRASQFINTYLNWYQQQPGKAPRLLIYAASSLQSGVPSRFSGSGSGTDFTLTISSLQPEDFATYYCQQSYVTPPYTFGQGTKLEIK
B3: BD55-1084 (protein)
chain 1: QVQLVQSGAEVKKPGASVKISCKASGYTFTNYHIHWVRQAPGQGLEWMGIINPSAGVTTYAQKFQGRVTMTSDASTSTVYMEVGSLRSDDTALYFCARGHTVTVAAIIYWGQGTLVTVSS
chain 2: QTVVTQEASLTVSPGGAVTLTCASSTGAVTSTYFPNWFQQKPGQPPRALIYSTSNKHSWTPARFSGSLLGGKAALTLSGVQPEDEAVYYCLLYDGDAQHWVFGGGTKLTVL
B4: BD55-1087 (protein)
chain 1: QVQLVQSGAEVKKPGASVKVSCKASGYSISTHSMTWVRQAPGQGLEWMGWVSGYNGDTNYAQRLQDRVTMTTEISTSTAYLELRSLRSDDTAVYYCARGKYDILSGYVWLDPWGQGTLVTVSS
chain 2: DIVMTQSPVSLAVTPGEPASISCRSSQSLLHSSGHNYLDWYVQKPGQSPQVLIYLGSTRASGVPDRFSGSGSGTDFTLKISRVEAEDVGVYYCMQALQTPLTFGGGTKVEIK
B5: BD55-5747 (protein)
chain 1: QVQLVQSGAEVKRPGSSVKVSCKASGDTFSTYAISWVRLAPGQGLEWMGRIIPILGIPTYAQKFQGRVTFTADKSTSTVYMELSSLRSDDTAVYYCARSPHLYESRGYYWRFDYWGQGTLVTVSS
chain 2: DIHMTQSPSSLSASVGDRVTINCRASQNISNYLNWYQQKPGKAPKFLIYAASSLQSGVPSRFSGSGSGTDFSLTISSLQPEDFATYFCQQSYSAPTFGGGTKVEIK
B6: BD55-5731 (protein)
chain 1: QVQLVQSGSELKKPGASVKLSCKASGYTFSTYAMKWVRQAPGHGLEWMGWINTNTGNPTYAQGFTGRFVFSLDTSVSTAYLQISSLKAEDTAVYYCARVFCSGGICYDVDYWGQGTLVTVSS
chain 2: QSVLTQPPSASGTPGQRVTISCSGSSSNIGSNFVYWYQHLPGTAPKLLIYRDNHRPSGVPDRFSGSKSATSASLAISGLRSEDEADYYCAAWDDGLGGRIFGGGTKLTVL
B7: BD55-5655 (protein)
chain 1: EVQLLESGGGLVQPGGSLRLSCTASAFTFSTYAMSWVRQAPGKGLEWVSAISRSGTHTYYADSVKGRFSISRDNSKSTLYLQINSLRAEDTAVYYCAKDLPNHVRSFGGGFDYWGQGTLVTVSS
chain 2: DIVMTQTPLSLSVTPGQPAAISCKSSQSLLHSDGETYLFWYLQKPGQSPQLLIHEVSSRFSGVPDRFSGSGSGTDFTLKISRVEAEDVGVYYCMQAMHLPLTFGGGTKVEIK
B8: BD55-5752 (protein)
chain 1: EVQLVESGGGLVKPGGSLRLSCSASGFIFSDYSMTWVRQAPGKTLEWVSSISRDSGLIFYADSVKGRFTTSRDNAKNSLYLQMSHLRVEDTAIYYCAREGPSSLLAFLDYWGQGARVLVSS
chain 2: DIQMTQSPSSLSASVGDRVTITCRASQYISNYLNWYQLKPGKAPKLLIYGASSLHGGVPSRFSGSGSGTDFTLTISSLQPEDFATYYCQQSYVTPALTFGGGTEVEIK
B9: BD55-5649 (protein)
chain 1: QVQLQQWGAGLLKPSETLSLTCAVYSESFGGFHWSWLRQSPGKGLEWIGAIHHSRGTNYNPSLQSRVTISLHTSKNQFSLKLSSVSAADTAVYYCARGSDHYDSSGYSLSDLFFDYWGQGALVTVSS
chain 2: QSVLTQPPSVSGAPGQRVTISCTGSSSNIGADYDVHWYQQLPGTAPKLLIYGNTNRPSGVPDRFSGSKSGASASLAITGLQAEDEADYYCQSYDSSLSGPNWVFGGGTKLTVL
B10: BD55-1092 (protein)
chain 1: EVQLVQSGAEVKKPGESLRISCEGSGYSFTSHYISWVRQMPGKGLEWMGRIDPSDSYTKYSPSFEGLVSISADKSISTAYLQWRSLKASDTAIYYCARQGFFEKLLYPDAFDIWGQGTFVTVSS
chain 2: DIVMTQSPLSLPVTPGEAASIFCRSSQSLLHSDGHNYLDWYLQKPGQSPQLLIYLGSNRASGVPDRFSGSGSGTDFTLKISRVEAEDVGIYYCMQTLQTHALTFGGGTKVEIK
B11: BD55-5770 (protein)
chain 1: EVQLVESGGGLVQPGGSLRLSCAASGFTFSDYWISWVRQAPGKGLEWVANIKHDGSEKYYVDSVKGRFSISRDNAKKSVYLQMNSLRAEDTAVYYCAREGSRDAYGAGIDYFDYWGQGTLVTVSS
chain 2: EVVMTQSPATLSVSPGERATLSCRASLSLSSNLAWYQQKPGQAPRLLIYGASTRATGIPARFSGSGSGTEFTLTISSLQSEDFAVYYCQQYNTWPPEYTFGQGTKLEIK
B12: BD55-5662 (protein)
chain 1: QVQLVESGGGVVQPGRSLRLSCEASGFTFSGYAMHWVRQAPGKGLEWVAVISYDASDKYYADSVKGRFTISRDNSKNTLYLEMNSLRAEDTAVYYCARAGVLRNFDWLLSSGFDYWGQGTLVTVSS
chain 2: DIQMTQSPSSLSASVGDRVTITCQASQDISNFLIWYQQKPGKAPKLLIYDAFNLEPGVPSRFSGSGSGTDFTFTISSLQPEDIATYYCQQYHNLPSFGQGTKLEIK

What was measured:
Assay in all cases: pseudovirus neutralization IC50; higher = weaker neutralization
[1] = target: SARS-CoV-2 Omicron BA.1 spike pseudovirus
Description: (§1)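 Single-round VSV luciferase pseudovirus mixed with antibody dilutions for 1 h and put on Huh-7 cells for about a day; IC50 from the dose curve.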

[2] = target: SARS-CoV-2 Omicron BA.2 spike pseudovirus
Description: as §1

[3] = target: SARS-CoV-2 Omicron BA.2.75 spike pseudovirus
Description: as §1

[4] = target: SARS-CoV-2 Omicron BA.5 spike pseudovirus
Description: as §1

[5] = target: SARS-CoV-2 Omicron BQ.1.1 spike pseudovirus
Description: as §1

[6] = target: SARS-CoV-2 Omicron XBB spike pseudovirus
Description: as §1

[7] = target: SARS-CoV-2 early D614G spike pseudovirus
Description: as §1

| Binder | pseudovirus neutralization IC50 [1] | pseudovirus neutralization IC50 [2] | pseudovirus neutralization IC50 [3] | pseudovirus neutralization IC50 [4] | pseudovirus neutralization IC50 [5] | pseudovirus neutralization IC50 [6] | pseudovirus neutralization IC50 [7] |
| --- | --- | --- | --- | --- | --- | --- | --- |
| B1 | 0.307 mg/L | 0.311 mg/L | 0.0123 mg/L | > 10 mg/L | > 10 mg/L | > 10 mg/L | 0.001 mg/L |
| B2 | > 10 mg/L | > 10 mg/L | > 10 mg/L | > 10 mg/L | > 10 mg/L | > 10 mg/L | > 10 mg/L |
| B3 | > 10 mg/L | > 10 mg/L | > 10 mg/L | > 10 mg/L | > 10 mg/L | > 10 mg/L | 0.00251 mg/L |
| B4 | > 10 mg/L | > 10 mg/L | > 10 mg/L | > 10 mg/L | > 10 mg/L | > 10 mg/L | > 10 mg/L |
| B5 | 0.0261 mg/L | 0.046 mg/L | 0.00461 mg/L | 0.0511 mg/L | 0.653 mg/L | 1.77 mg/L | 0.00112 mg/L |
| B6 | > 10 mg/L | > 10 mg/L | > 10 mg/L | > 10 mg/L | > 10 mg/L | > 10 mg/L | 0.546 mg/L |
| B7 | > 10 mg/L | > 10 mg/L | > 10 mg/L | > 10 mg/L | > 10 mg/L | > 10 mg/L | 0.00639 mg/L |
| B8 | > 10 mg/L | > 10 mg/L | > 10 mg/L | > 10 mg/L | > 10 mg/L | > 10 mg/L | 1.4 mg/L |
| B9 | 0.159 mg/L | 2.34 mg/L | 2.06 mg/L | 2.19 mg/L | 1.99 mg/L | 1.93 mg/L | 0.0252 mg/L |
| B10 | > 10 mg/L | > 10 mg/L | > 10 mg/L | > 10 mg/L | > 10 mg/L | > 10 mg/L | 0.00225 mg/L |
| B11 | > 10 mg/L | > 10 mg/L | > 10 mg/L | > 10 mg/L | > 10 mg/L | > 10 mg/L | 2.36 mg/L |
| B12 | 3.2 mg/L | > 10 mg/L | > 10 mg/L | > 10 mg/L | > 10 mg/L | > 10 mg/L | 0.103 mg/L |
